Test results: publication PMC9982069, “Crystal structure of the membrane (M) protein from a bat betacoronavirus” (2023)

Target: batCOV5-M_(H155A), affinity- and SEC-purified (MST), Pipistrellus bat coronavirus HKU5, A3EXD6 1-220
Assay: MST

Substance: batCOV5-N3 (residues 391-427) with C-terminal GFP-His10 (MST) H155A
- Kd: 3.6 µM
